Measured values published in patent US10414808B2 (priority 2012, dated 2019).

Chains of the proteins cited; added tags and fusions are not shown.
UniProt Q15858, whole entry W1161R, looked up: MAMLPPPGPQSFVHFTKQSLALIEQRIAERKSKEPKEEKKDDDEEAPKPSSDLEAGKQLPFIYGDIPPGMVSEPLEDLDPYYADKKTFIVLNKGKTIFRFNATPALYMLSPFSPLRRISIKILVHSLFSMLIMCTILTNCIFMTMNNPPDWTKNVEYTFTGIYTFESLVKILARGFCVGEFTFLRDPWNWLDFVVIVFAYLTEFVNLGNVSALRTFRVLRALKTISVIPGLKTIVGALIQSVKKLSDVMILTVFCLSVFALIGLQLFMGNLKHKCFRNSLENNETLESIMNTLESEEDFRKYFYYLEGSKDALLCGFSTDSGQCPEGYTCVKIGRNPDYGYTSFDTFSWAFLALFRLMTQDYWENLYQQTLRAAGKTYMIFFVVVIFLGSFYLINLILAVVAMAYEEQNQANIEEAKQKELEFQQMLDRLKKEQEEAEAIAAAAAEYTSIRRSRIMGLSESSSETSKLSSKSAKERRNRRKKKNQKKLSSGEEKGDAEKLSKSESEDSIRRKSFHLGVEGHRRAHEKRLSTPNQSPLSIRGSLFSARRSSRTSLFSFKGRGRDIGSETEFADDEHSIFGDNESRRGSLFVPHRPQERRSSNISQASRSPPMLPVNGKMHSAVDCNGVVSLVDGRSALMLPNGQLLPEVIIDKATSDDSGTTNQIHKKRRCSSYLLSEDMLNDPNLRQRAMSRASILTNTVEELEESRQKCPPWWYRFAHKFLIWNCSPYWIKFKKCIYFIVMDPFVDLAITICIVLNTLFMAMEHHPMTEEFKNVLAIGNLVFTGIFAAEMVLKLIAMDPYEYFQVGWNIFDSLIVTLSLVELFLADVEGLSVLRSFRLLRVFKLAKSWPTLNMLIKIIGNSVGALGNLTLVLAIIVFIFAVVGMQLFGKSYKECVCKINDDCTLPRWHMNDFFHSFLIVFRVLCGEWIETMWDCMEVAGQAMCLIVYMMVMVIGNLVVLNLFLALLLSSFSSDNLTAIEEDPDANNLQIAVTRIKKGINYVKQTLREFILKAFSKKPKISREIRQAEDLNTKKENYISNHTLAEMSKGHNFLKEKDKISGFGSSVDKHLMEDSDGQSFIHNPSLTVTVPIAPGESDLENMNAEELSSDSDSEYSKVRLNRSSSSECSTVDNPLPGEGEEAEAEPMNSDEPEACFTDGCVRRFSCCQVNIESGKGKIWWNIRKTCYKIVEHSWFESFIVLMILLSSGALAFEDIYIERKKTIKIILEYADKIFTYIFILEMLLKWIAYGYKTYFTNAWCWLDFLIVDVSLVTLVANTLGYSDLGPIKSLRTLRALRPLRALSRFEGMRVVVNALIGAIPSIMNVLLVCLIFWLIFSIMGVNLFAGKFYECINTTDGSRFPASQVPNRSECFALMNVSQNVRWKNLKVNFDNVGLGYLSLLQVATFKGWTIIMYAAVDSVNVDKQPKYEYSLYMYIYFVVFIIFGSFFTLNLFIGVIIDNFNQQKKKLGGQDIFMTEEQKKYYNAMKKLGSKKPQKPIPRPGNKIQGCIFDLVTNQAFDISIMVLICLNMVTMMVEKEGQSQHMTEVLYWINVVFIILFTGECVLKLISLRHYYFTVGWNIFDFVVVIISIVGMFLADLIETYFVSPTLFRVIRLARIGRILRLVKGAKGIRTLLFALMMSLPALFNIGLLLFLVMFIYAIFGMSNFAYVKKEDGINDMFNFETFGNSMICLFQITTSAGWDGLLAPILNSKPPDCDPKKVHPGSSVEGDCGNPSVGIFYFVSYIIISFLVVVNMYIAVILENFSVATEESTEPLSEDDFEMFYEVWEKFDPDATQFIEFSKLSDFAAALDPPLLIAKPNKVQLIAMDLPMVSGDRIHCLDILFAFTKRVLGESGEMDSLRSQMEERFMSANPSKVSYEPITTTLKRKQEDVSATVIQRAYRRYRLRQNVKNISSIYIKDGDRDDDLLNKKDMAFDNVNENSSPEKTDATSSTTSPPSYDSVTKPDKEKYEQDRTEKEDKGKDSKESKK
UniProt Q99250, whole entry, looked up: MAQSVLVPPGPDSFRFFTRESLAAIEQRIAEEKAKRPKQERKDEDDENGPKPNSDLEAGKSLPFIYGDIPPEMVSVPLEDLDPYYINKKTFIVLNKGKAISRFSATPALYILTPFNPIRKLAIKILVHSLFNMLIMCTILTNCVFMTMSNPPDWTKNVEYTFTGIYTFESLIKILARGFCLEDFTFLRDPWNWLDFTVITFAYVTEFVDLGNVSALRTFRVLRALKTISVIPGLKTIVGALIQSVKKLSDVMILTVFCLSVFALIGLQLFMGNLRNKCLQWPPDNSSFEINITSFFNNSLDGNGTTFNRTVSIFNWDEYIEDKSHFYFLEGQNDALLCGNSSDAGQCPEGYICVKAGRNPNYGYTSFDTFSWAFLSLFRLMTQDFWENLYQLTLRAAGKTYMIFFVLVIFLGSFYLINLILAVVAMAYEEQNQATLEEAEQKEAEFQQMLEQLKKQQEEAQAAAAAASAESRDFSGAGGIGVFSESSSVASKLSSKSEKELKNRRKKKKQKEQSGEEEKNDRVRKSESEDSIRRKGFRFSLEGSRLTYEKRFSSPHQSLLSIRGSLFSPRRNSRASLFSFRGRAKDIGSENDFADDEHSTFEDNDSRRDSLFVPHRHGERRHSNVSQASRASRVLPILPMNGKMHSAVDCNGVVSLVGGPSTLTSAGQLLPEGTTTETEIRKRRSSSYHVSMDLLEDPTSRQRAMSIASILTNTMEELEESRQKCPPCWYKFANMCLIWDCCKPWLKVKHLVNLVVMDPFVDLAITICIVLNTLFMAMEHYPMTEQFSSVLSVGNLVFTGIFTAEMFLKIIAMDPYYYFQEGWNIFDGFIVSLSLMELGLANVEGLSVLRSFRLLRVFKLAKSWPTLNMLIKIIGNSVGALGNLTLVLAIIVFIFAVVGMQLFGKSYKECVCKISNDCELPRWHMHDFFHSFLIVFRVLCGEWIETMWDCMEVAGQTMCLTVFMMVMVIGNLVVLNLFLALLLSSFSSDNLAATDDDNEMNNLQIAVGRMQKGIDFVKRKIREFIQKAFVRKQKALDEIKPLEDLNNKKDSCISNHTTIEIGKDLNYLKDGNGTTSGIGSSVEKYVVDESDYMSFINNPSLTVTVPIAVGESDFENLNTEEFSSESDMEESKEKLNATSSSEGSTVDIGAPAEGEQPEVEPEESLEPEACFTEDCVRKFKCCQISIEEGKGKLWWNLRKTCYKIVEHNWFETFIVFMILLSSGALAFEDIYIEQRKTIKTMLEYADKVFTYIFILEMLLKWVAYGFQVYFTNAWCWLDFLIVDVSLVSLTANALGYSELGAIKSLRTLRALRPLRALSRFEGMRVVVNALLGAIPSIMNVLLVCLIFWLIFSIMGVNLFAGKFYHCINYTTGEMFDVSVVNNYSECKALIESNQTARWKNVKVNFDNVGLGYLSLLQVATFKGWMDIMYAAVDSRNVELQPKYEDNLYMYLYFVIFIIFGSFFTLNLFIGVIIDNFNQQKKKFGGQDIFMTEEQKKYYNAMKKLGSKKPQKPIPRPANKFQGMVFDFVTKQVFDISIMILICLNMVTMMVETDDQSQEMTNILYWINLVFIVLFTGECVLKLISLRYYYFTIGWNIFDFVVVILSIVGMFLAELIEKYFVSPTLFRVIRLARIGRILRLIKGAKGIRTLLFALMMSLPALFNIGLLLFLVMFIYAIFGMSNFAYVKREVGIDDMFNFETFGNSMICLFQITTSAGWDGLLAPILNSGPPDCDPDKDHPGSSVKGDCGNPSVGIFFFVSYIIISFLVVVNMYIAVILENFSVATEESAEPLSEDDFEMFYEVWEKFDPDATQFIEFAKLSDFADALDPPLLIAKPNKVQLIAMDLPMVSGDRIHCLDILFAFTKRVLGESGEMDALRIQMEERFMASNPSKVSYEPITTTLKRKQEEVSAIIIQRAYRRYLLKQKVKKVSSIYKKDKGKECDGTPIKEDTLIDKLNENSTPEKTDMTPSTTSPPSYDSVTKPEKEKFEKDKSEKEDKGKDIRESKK

What was measured:
Nav1.7 = Nav1.7 (Homo sapiens, UniProt Q15858, W1161R); test: IC50 (Nav1.7) µM; conditions: read-out: IC50 (Nav1.7) µM
Nav1.2 = Nav1.2 (Homo sapiens, UniProt Q99250); test: IC50 (Nav1.2) µM; conditions: read-out: IC50 (Nav1.2) µM

CC[C@H](C)[C@H](NC(=O)[C@H](CCC(N)=O)NC(=O)[C@H](Cc1ccc(O)cc1)NC(=O)[C@H](CCCCN)NC(=O)[C@@H]1CSSC[C@@H]2NC(=O)[C@H](CCC(N)=O)NC(=O)[C@H](CC(=O)O)NC(=O)[C@H](CC(N)=O)NC(=O)[C@H](CO)NC(=O)[C@@H]3CCCN3C(=O)[C@H](CC(N)=O)NC(=O)[C@@H]3CSSC[C@H](NC(=O)[C@H](C(C)C)NC(=O)[C@H](CC(C)C)NC(=O)[C@H](CCCCN)NC(=O)[C@H](CO)NC(=O)[C@H](CO)NC(=O)[C@H](CCCCN)NC(=O)[C@H](CSSC[C@H](NC(=O)[C@H](CCC(=O)O)NC(=O)[C@@H]4CCCN4C(=O)CN)C(=O)N[C@@H](CC(C)C)C(=O)N[C@@H](CCC(N)=O)C(=O)N[C@@H]([C@@H](C)CC)C(=O)N[C@@H](Cc4ccccc4)C(=O)N[C@@H](CCCCN)C(=O)N[C@@H](C)C(=O)N3)NC2=O)C(=O)N[C@@H](CO)C(=O)N[C@@H](CCCNC(=N)N)C(=O)N[C@@H](CCCCN)C(=O)N[C@@H]([C@@H](C)O)C(=O)N[C@@H](CCCNC(=N)N)C(=O)N[C@@H](Cc2c[nH]c3ccccc23)C(=O)N1)C(=O)NCC(=O)N[C@@H](CCCCN)C(=O)O
IC50 (Nav1.7): 0.02 µM
IC50 (Nav1.2): 0.02 µM

CC[C@H](C)[C@H](NC(=O)[C@H](CCC(N)=O)NC(=O)[C@H](Cc1ccc(O)cc1)NC(=O)[C@H](CCCCN)NC(=O)[C@@H]1CSSC[C@@H]2NC(=O)[C@H](CCC(N)=O)NC(=O)[C@H](CC(=O)O)NC(=O)[C@H](CC(N)=O)NC(=O)[C@H](CO)NC(=O)[C@@H]3CCCN3C(=O)[C@H](CC(N)=O)NC(=O)[C@@H]3CSSC[C@H](NC(=O)[C@H](C(C)C)NC(=O)[C@H](CC(C)C)NC(=O)[C@H](CCCCN)NC(=O)[C@H](CO)NC(=O)[C@H](CO)NC(=O)[C@H](CCCCN)NC(=O)[C@H](CSSC[C@H](NC(=O)[C@H](CCC(=O)O)NC(=O)[C@@H]4CCCN4C(=O)CN)C(=O)N[C@@H](CC(C)C)C(=O)N[C@@H](CCC(=O)O)C(=O)N[C@@H]([C@@H](C)CC)C(=O)N[C@@H](Cc4ccccc4)C(=O)N[C@@H](CCCCN)C(=O)N[C@@H](C)C(=O)N3)NC2=O)C(=O)N[C@@H](CO)C(=O)N[C@@H](CCCNC(=N)N)C(=O)N[C@@H](CCCCN)C(=O)N[C@@H]([C@@H](C)O)C(=O)N[C@@H](CCCNC(=N)N)C(=O)N[C@@H](Cc2ccc(O)cc2)C(=O)N1)C(=O)NCC(=O)N[C@@H](CCCCN)C(=O)O
IC50 (Nav1.7): 1.69 µM
IC50 (Nav1.2): 36.6 µM

CC[C@H](C)[C@H](NC(=O)[C@H](CCC(N)=O)NC(=O)[C@H](Cc1ccc(O)cc1)NC(=O)[C@H](CCCCN)NC(=O)[C@@H]1CSSC[C@@H]2NC(=O)[C@H](CCC(N)=O)NC(=O)[C@H](CC(=O)O)NC(=O)[C@H](CC(N)=O)NC(=O)[C@H](CO)NC(=O)[C@@H]3CCCN3C(=O)[C@H](CC(N)=O)NC(=O)[C@@H]3CSSC[C@H](NC(=O)[C@H](C(C)C)NC(=O)[C@H](CC(C)C)NC(=O)[C@H](CCCCN)NC(=O)[C@H](CO)NC(=O)[C@H](CO)NC(=O)[C@H](CCCCN)NC(=O)[C@H](CSSC[C@H](NC(=O)[C@H](CCC(=O)O)NC(=O)[C@@H]4CCCN4C(=O)CN)C(=O)N[C@@H](CC(C)C)C(=O)N[C@@H](CCC(=O)O)C(=O)N[C@@H]([C@@H](C)CC)C(=O)N[C@@H](Cc4ccccc4)C(=O)N[C@@H](CCCCN)C(=O)N[C@@H](CCCNC(=N)N)C(=O)N3)NC2=O)C(=O)N[C@@H](CO)C(=O)N[C@@H](CCCNC(=N)N)C(=O)N[C@@H](CCCCN)C(=O)N[C@@H]([C@@H](C)O)C(=O)N[C@@H](CCCNC(=N)N)C(=O)N[C@@H](Cc2c[nH]c3ccccc23)C(=O)N1)C(=O)NCC(=O)N[C@@H](CCCCN)C(=O)O
IC50 (Nav1.7): 0.02 µM

CC[C@H](C)[C@H](NC(=O)[C@H](CO)NC(=O)[C@H](Cc1ccc(O)cc1)NC(=O)[C@H](CCCCN)NC(=O)[C@@H]1CSSC[C@@H]2NC(=O)[C@H](CCC(N)=O)NC(=O)[C@H](CC(=O)O)NC(=O)[C@H](CC(N)=O)NC(=O)[C@H](CO)NC(=O)[C@@H]3CCCN3C(=O)[C@H](CC(N)=O)NC(=O)[C@@H]3CSSC[C@H](NC(=O)[C@H](C(C)C)NC(=O)[C@H](CC(C)C)NC(=O)[C@H](CCCCN)NC(=O)[C@H](CO)NC(=O)[C@H](CO)NC(=O)[C@H](CCCCN)NC(=O)[C@H](CSSC[C@H](NC(=O)[C@H](CC(N)=O)NC(=O)[C@@H]4CCCN4C(=O)CN)C(=O)N[C@@H](CC(C)C)C(=O)N[C@@H](CCCNC(=N)N)C(=O)N[C@@H]([C@@H](C)CC)C(=O)N[C@@H](Cc4ccccc4)C(=O)N[C@@H](CCCCN)C(=O)N[C@@H](C)C(=O)N3)NC2=O)C(=O)N[C@@H](CO)C(=O)N[C@@H](CCCCN)C(=O)N[C@@H](CCCCN)C(=O)N[C@@H]([C@@H](C)O)C(=O)N[C@@H](CCCNC(=N)N)C(=O)N[C@@H](Cc2c[nH]c3ccccc23)C(=O)N1)C(=O)NCC(=O)N[C@@H](CCCCN)C(=O)O
IC50 (Nav1.2): 0.11 µM

CC[C@H](C)[C@@H]1NC(=O)[C@H](CCC(=O)O)NC(=O)[C@H](CC(C)C)NC(=O)[C@@H](NC(=O)[C@H](CC(N)=O)NC(=O)[C@@H]2CCCN2C(=O)CN)CSSC[C@@H]2NC(=O)[C@@H]3CSSC[C@@H](C(=O)N[C@@H](CCCCN)C(=O)N[C@@H](Cc4ccc(O)cc4)C(=O)N[C@@H](CO)C(=O)N[C@H](C(=O)N[C@H](C(=O)N[C@@H](CCCCN)C(=O)O)[C@@H](C)CC)[C@@H](C)CC)NC(=O)[C@H](Cc4c[nH]c5ccccc45)NC(=O)[C@H](CCCNC(=N)N)NC(=O)[C@H]([C@@H](C)O)NC(=O)[C@H](CCCCN)NC(=O)[C@H](CCCCN)NC(=O)[C@H](CO)NC(=O)[C@H](CSSC[C@H](NC(=O)[C@H](C)NC(=O)[C@H](CCCCN)NC(=O)[C@H](Cc4ccccc4)NC1=O)C(=O)N[C@@H](CC(N)=O)C(=O)N1CCC[C@H]1C(=O)N[C@@H](CO)C(=O)N[C@@H](CC(N)=O)C(=O)N[C@@H](CC(=O)O)C(=O)N[C@@H](CCC(N)=O)C(=O)N3)NC(=O)[C@H](C(C)C)NC(=O)[C@H](CC(C)C)NC(=O)[C@H](CCCCN)NC(=O)[C@H](CO)NC(=O)[C@H](CO)NC(=O)[C@H](CCCCN)NC2=O
IC50 (Nav1.7): 0.24 µM
IC50 (Nav1.2): > 7.14 µM

CC[C@H](C)[C@H](NC(=O)[C@H](CO)NC(=O)[C@H](Cc1c[nH]c2ccccc12)NC(=O)[C@H](CCCCN)NC(=O)[C@@H]1CSSC[C@@H]2NC(=O)[C@H](CCC(N)=O)NC(=O)[C@H](CC(=O)O)NC(=O)[C@H](CC(N)=O)NC(=O)[C@H](CO)NC(=O)[C@@H]3CCCN3C(=O)[C@H](CC(N)=O)NC(=O)[C@@H]3CSSC[C@H](NC(=O)[C@H](C(C)C)NC(=O)[C@H](CC(C)C)NC(=O)[C@H](CCCCN)NC(=O)[C@H](CO)NC(=O)[C@H](CO)NC(=O)[C@H](CCCCN)NC(=O)[C@H](CSSC[C@H](NC(=O)[C@H](CC(N)=O)NC(=O)[C@@H]4CCCN4C(=O)CN)C(=O)N[C@@H](CC(C)C)C(=O)N[C@@H](CCC(=O)O)C(=O)N[C@@H]([C@@H](C)CC)C(=O)N[C@@H](Cc4ccccc4)C(=O)N[C@@H](CCCCN)C(=O)N[C@@H](C)C(=O)N3)NC2=O)C(=O)N[C@@H](CO)C(=O)N[C@@H](CCCNC(=N)N)C(=O)N[C@@H](CCCCN)C(=O)N[C@@H]([C@@H](C)O)C(=O)N[C@@H](CCCNC(=N)N)C(=O)N[C@@H](Cc2c[nH]c3ccccc23)C(=O)N1)C(=O)NCC(=O)N[C@@H](CCCCN)C(=O)O
IC50 (Nav1.7): 0.02 µM

CC[C@H](C)[C@H](NC(=O)[C@H](Cc1ccccc1)NC(=O)[C@H](Cc1ccc(O)cc1)NC(=O)[C@H](CCCCN)NC(=O)[C@@H]1CSSC[C@@H]2NC(=O)[C@H](CCC(N)=O)NC(=O)[C@H](CC(=O)O)NC(=O)[C@H](CC(N)=O)NC(=O)[C@H](CO)NC(=O)[C@@H]3CCCN3C(=O)[C@H](CC(N)=O)NC(=O)[C@@H]3CSSC[C@H](NC(=O)[C@H](C(C)C)NC(=O)[C@H](CC(C)C)NC(=O)[C@H](CCCCN)NC(=O)[C@H](CO)NC(=O)[C@H](CO)NC(=O)[C@H](CCCCN)NC(=O)[C@H](CSSC[C@H](NC(=O)[C@H](CCC(=O)O)NC(=O)[C@@H]4CCCN4C(=O)CN)C(=O)N[C@@H](CC(C)C)C(=O)N[C@@H](CCC(=O)O)C(=O)N[C@@H]([C@@H](C)CC)C(=O)N[C@@H](Cc4ccccc4)C(=O)N[C@@H](CCCCN)C(=O)N[C@@H](C)C(=O)N3)NC2=O)C(=O)N[C@@H](CO)C(=O)N[C@@H](CCCNC(=N)N)C(=O)N[C@@H](CCCCN)C(=O)N[C@@H]([C@@H](C)O)C(=O)N[C@@H](CCCNC(=N)N)C(=O)N[C@@H](Cc2c[nH]c3ccccc23)C(=O)N1)C(=O)NCC(=O)N[C@@H](CCCCN)C(=O)O
IC50 (Nav1.2): > 0.06 µM

CC[C@H](C)[C@@H]1NC(=O)[C@H](CCC(=O)O)NC(=O)[C@H](CC(C)C)NC(=O)[C@@H](NC(=O)[C@H](CCC(=O)O)NC(=O)[C@@H]2CCCN2C(=O)CN)CSSC[C@@H]2NC(=O)[C@@H]3CSSC[C@@H](C(=O)N[C@@H](CCCCN)C(=O)N[C@@H](Cc4ccc(O)cc4)C(=O)N[C@@H](CCC(N)=O)C(=O)N[C@H](C(=O)N[C@H](C(=O)N[C@@H](CCCCN)C(=O)O)[C@@H](C)CC)[C@@H](C)CC)NC(=O)[C@H](Cc4c[nH]c5ccccc45)NC(=O)[C@H](CCCNC(=N)N)NC(=O)[C@H]([C@@H](C)O)NC(=O)[C@H](CCCCN)NC(=O)[C@H](CCCCN)NC(=O)[C@H](CO)NC(=O)[C@H](CSSC[C@H](NC(=O)[C@H](C)NC(=O)[C@H](CCCCN)NC(=O)[C@H](Cc4ccccc4)NC1=O)C(=O)N[C@@H](CC(N)=O)C(=O)N1CCC[C@H]1C(=O)N[C@@H](CO)C(=O)N[C@@H](CC(N)=O)C(=O)N[C@@H](CC(=O)O)C(=O)N[C@@H](CCC(N)=O)C(=O)N3)NC(=O)[C@H](C(C)C)NC(=O)[C@H](CC(C)C)NC(=O)[C@H](CCCCN)NC(=O)[C@H](CO)NC(=O)[C@H](CO)NC(=O)[C@H](CCCCN)NC2=O
IC50 (Nav1.7): 0.31 µM
